The results in this text go back to patent US20190352343A1 (AUCKLAND UNISERVICES, published 2019).

The target in the test is MBP3L-Cpe0147-T450S^439-563 (Clostridium perfringens). Nature of the test: SDS-PAGE time course of ester bond formation.

Take Cpe0147^565-587-eGFP fusion: the percent conversion at ~1 h was > 50%.
